Experimental data from ChEMBL document CHEMBL4145559 (ACS Med Chem Lett, 2018).

Tested on: Yersinia pestis
Assay: Antimicrobial activity against Yersinia pestis KIM6+
Assay type: functional

C[C@@H](O)[C@H]1C(=O)N2C(C(=O)O)=C(S[C@@H]3CC[S+]([O-])C3)S[C@H]12 (stereo partly specified)
MIC: 32 µg/mL (≈ 91.6 µM)

Values after ≈ are worked out from the molar mass of the structure shown.
